Compound potency records, mixed from different reports. Data source: NIAID ChemDB in PubChem.

All rows: whole-cell or culture tests; agent: Mycobacterium smegmatis

A number after MIC or MFC names an inhibition level or a share of isolates. Conditions beyond the fields shown may differ between rows. Inhibition is in % at the dose shown (toxicity tests: loss of growth or viability). Zone: diameter of growth inhibition.

{"compound": "Cc1nn(-c2ccccc2)c2c1C(c1cn(-c3ccccc3)nc1-c1ccc(F)cc1)C1=C(NC(C)(c3cc(O)ccc3Cl)NC1=O)O2", "strain or isolate": "NCIM 5138", "dose": "1 mg/mL", "method": "agar diffusion / agar", "read-out": "zone", "result": "3.2 mm"}
{"compound": "CC(C)C[C@H](NC(=O)[C@H](Cc1ccccc1)NC(=O)c1cnccn1)B(O)O", "dose": "30 µM", "method": "turbidity", "read-out": "inhibition", "result": "90%"}
{"compound": "C[C@H]1NCc2cc(-c3ccc4c(=O)c(C(=O)O)cn(C5CC5)c4c3OC(F)F)ccc21", "strain or isolate": "A24185", "read-out": "MIC", "result": "0.25 µg/mL"}
{"compound": "COC(=O)C(C)c1ccc2[nH]c3ccc(Cl)cc3c2c1", "method": "resazurin / visual reading / absorbance", "read-out": "MIC99", "result": ">500 µg/mL"}
{"compound": "CC(C)N1CCN(c2c(F)cc3c(=O)c(C(=O)O)cn(C4CC4)c3c2F)CC1", "strain or isolate": "KD1987 (GYRA A91V)", "read-out": "MIC99", "result": "2.3 µg/mL"}
{"compound": "Cc1c2ccncc2c(C)c2c1[nH]c1ccc(Br)cc12", "strain or isolate": "mc2155", "method": "resazurin / fluorescence", "read-out": "MBC", "result": ">100 µM"}
{"compound": "COc1nc2ccc(Br)cc2cc1[C@@H](c1ccccc1)[C@@](O)(CCN(C)C)c1cccc2ccccc12", "strain or isolate": "delta-cyt-bc1", "method": "broth dilution", "read-out": "MIC80", "result": "0.06 µM"}
{"compound": "CNCC1CCN(c2nc3c(cc2F)c(=O)c(C(=O)O)cn3C(C)(C)C)C1", "strain or isolate": "ATCC 19420", "read-out": "MIC", "result": "0.13 µg/mL"}
{"compound": "COC(=O)Cc1ccc2[nH]c3ccc(Br)cc3c2c1", "method": "resazurin / visual reading / absorbance", "read-out": "MIC99", "result": ">500 µg/mL"}
{"compound": "COc1c(N2CCNC(C)C2)c(F)cc2c(=O)c(C(=O)O)cn(C3CC3)c12", "strain or isolate": "KD2003 (GYRA D95G)", "read-out": "MIC99", "result": "0.49 µg/mL"}
{"compound": "O=C(O)c1cc(C(F)(F)F)cc2c(=O)nc(N3CCN(CC4CCCCC4)CC3)sc12", "strain or isolate": "mc2155", "method": "resazurin", "read-out": "MIC99", "result": "0.0007 µg/mL"}
{"compound": "Cc1c(N2CCN(c3ccccn3)CC2)c(F)cn2c(=O)c(C(=O)O)cc(C3CC3)c12", "strain or isolate": "ATCC114", "read-out": "MIC", "result": "0.39 µg/mL"}
{"compound": "O=C(N[C@H]([C@H](O)CNCc1cccc(I)c1)C(F)(F)c1ccccc1)OCc1ccccc1", "strain or isolate": "19420", "dose": "50 µg/disc", "method": "agar diffusion", "read-out": "zone", "result": "10 mm"}
{"compound": "O=C(O)c1cn(C2CC2)c2nc(N3CCNCC3)c(F)cc2c1=O", "strain or isolate": "ATCC 19420", "read-out": "MIC", "result": "0.5 µg/mL"}
{"compound": "CC(C)(C)c1ccc(C(=O)Nc2nc(-c3ccccn3)cs2)cc1", "method": "visual reading", "read-out": "MIC99", "result": "12.5 µM"}
{"compound": "CC1CN(c2nc3c(cc2F)c(=O)c(C(=O)O)cn3C2CC2)CCN1", "strain or isolate": "ATCC 19420", "read-out": "MIC", "result": "0.5 µg/mL"}
{"compound": "CCCN(CCC)C(=O)c1cc(C)cc(C(=O)N[C@@H](Cc2cc(F)cc(F)c2)[C@H](O)CNCc2cccc(I)c2)c1", "strain or isolate": "ATCC 19420", "dose": "100 µg/disc", "method": "agar diffusion", "read-out": "zone", "result": "9 mm"}
{"compound": "Cc1c(N2CCc3c(N)cccc3C2)c(F)cn2c(=O)c(C(=O)O)cc(C3CC3)c12.Cl", "strain or isolate": "ATCC114", "read-out": "MIC", "result": "25 µg/mL"}
{"compound": "COC(=O)Cc1ccc2[nH]c3ccc(F)cc3c2c1", "method": "resazurin / visual reading / absorbance", "read-out": "MIC99", "result": ">500 µg/mL"}
{"compound": "Cc1nn(-c2ccccc2)c2c1C(c1cn(-c3ccccc3)nc1-c1ccc(Cl)cc1)C1=C(NC(C)(c3cc(O)c(Cl)c(O)c3)NC1=O)O2", "strain or isolate": "NCIM 5138", "dose": "0.1 mg/mL", "method": "agar diffusion / agar", "read-out": "zone", "result": "3.8 mm"}
{"compound": "CC[C@@H](CO)NCCN[C@@H](CC)CO", "strain or isolate": "ATCC 700084", "method": "broth dilution", "read-out": "MIC99", "result": "<0.2 µg/mL"}
{"compound": "Cc1c(N2CCC(F)C2)c(F)cn2c(=O)c(C(=O)O)cc(C3CC3)c12", "strain or isolate": "ATCC114", "read-out": "MIC", "result": "0.78 µg/mL"}
{"compound": "NC1CCN(c2c(F)cc3c(=O)c(C(=O)O)cn(C4CC4)c3c2Cl)C1", "strain or isolate": "ATCC 19420", "read-out": "MIC", "result": "≤0.03 µg/mL"}
{"compound": "CC(C)N1CCN(c2cc3c(cc2F)c(=O)c(C(=O)O)cn3C2CC2)CC1", "strain or isolate": "KD1991 (GYRA D95Y)", "read-out": "MIC99", "result": "4.6 µg/mL"}
{"compound": "CC(=O)O[C@@]12CO[C@@H]1C[C@H](O)[C@@]1(C)C(=O)[C@H](O)C3=C(C)C(OC(=O)/C=C/c4ccc5ccccc5c4)C[C@@](O)([C@@H](OC(=O)c4ccccc4)[C@H]21)C3(C)C", "method": "agar / colony count / visual reading", "read-out": "MIC100", "result": "60 µM"}
{"compound": "Cc1nn(-c2ccccc2)c2c1C(c1cn(-c3ccccc3)nc1-c1ccc(F)cc1)C1=C(NC(C)(c3cc(O)c(I)cc3Cl)NC1=O)O2", "strain or isolate": "NCIM 5138", "dose": "0.1 mg/mL", "method": "agar diffusion / agar", "read-out": "zone", "result": "5.6 mm"}
{"compound": "CNCC1CN(c2c(F)cn3c(=O)c(C(=O)O)cc(C4CC4)c3c2C)CCO1.Cl", "strain or isolate": "ATCC114", "read-out": "MIC", "result": "1.56 µg/mL"}
{"compound": "CC(=O)Nc1ccc(Nc2nc(-c3cccc(N)c3)nc3c2ncn3C2CCCCC2)cc1", "strain or isolate": "mc2155", "method": "resazurin / fluorescence", "read-out": "MBC", "result": "62.7 µM"}
{"compound": "CCCN(CCC)C(=O)c1cc(C)cc(C(=O)N[C@@H](Cc2ccccc2)[C@H](O)CNCc2cccc(I)c2)c1", "strain or isolate": "ATCC 19420", "dose": "100 µg/disc", "method": "agar diffusion", "read-out": "zone", "result": "15 mm"}
{"compound": "CN1CCN(c2c(F)cn3c(=O)c(C(=O)O)cc(-c4ccccc4)c3c2F)CC1.Cl", "strain or isolate": "ATCC114", "read-out": "MIC", "result": "6.2 µg/mL"}
{"compound": "COc1ccc(-c2nn(-c3ccccc3)cc2C2C3=C(NC(C)(c4cc(O)ccc4Cl)NC3=O)Oc3c2c(C)nn3-c2ccccc2)cc1", "strain or isolate": "NCIM 5138", "dose": "0.5 mg/mL", "method": "agar diffusion / agar", "read-out": "zone", "result": "4.2 mm"}
{"compound": "O=C(O)c1cn(C2CC2)c2c(Br)c(N3CCNCC3)c(F)cc2c1=O", "strain or isolate": "ATCC 19420", "read-out": "MIC", "result": "0.06 µg/mL"}
{"compound": "COc1c(N2CC(C)NC(C)C2)c(F)cc2c(=O)c(C(=O)O)cn(C3CC3)c12", "strain or isolate": "KD1163 (GRYA+)", "read-out": "MIC99", "result": "0.028 µg/mL"}
{"compound": "CCN1CCN(c2nc3c(cc2F)c(=O)c(C(=O)O)cn3-c2ccc(F)cc2F)CC1", "strain or isolate": "ATCC 19420", "read-out": "MIC", "result": "0.5 µg/mL"}
{"compound": "O=C(Nc1ccc(-c2nc3ccccc3[nH]2)cc1)c1cc2ccccc2o1", "strain or isolate": "mc2155", "method": "resazurin / fluorescence", "read-out": "MBC", "result": "46 µM"}
{"compound": "CNCC1CCN(c2c(F)cc3c(=O)c(C(=O)O)cn(C4CC4)c3c2C(F)(F)F)C1", "strain or isolate": "ATCC 19420", "read-out": "MIC", "result": "4 µg/mL"}
{"compound": "COC(=O)C(C)c1ccc2c(c1)[nH]c1ccc(Cl)cc12", "method": "resazurin / visual reading / absorbance", "read-out": "MIC99", "result": ">500 µg/mL"}
{"compound": "CC(/C=C/[C@@]1(C)[C@H](C)CCC(=O)[C@@H]1C)=C\\Cc1c(O)c(Cl)c(C)c(C=O)c1O", "strain or isolate": "ATCC 607", "dose": "10 µg/disc", "method": "agar diffusion", "read-out": "zone", "result": "7 mm"}

For reference, 3 entries again:

{"compound": "O=C(O)c1cn(C2CC2)c2nc(N3CCNCC3)c(F)cc2c1=O", "strain or isolate": "ATCC 19420", "read-out": "MIC", "result": "0.5 µg/mL"}
{"compound": "CC[C@@H](CO)NCCN[C@@H](CC)CO", "strain or isolate": "ATCC 700084", "method": "broth dilution", "read-out": "MIC99", "result": "<0.2 µg/mL"}
{"compound": "COc1nc2ccc(Br)cc2cc1[C@@H](c1ccccc1)[C@@](O)(CCN(C)C)c1cccc2ccccc12", "strain or isolate": "delta-cyt-bc1", "method": "broth dilution", "read-out": "MIC80", "result": "0.06 µM"}